A mixed list of measured activities; the numbers were collected in NIAID ChemDB.

Common to all: target-level tests; agent: HIV-1; target: Reverse transcriptase; endpoint: fold resistance

Neighbouring rows are from separate reports.

{"structure": "COc1cc(CSc2nc(Cc3c(Cl)cccc3Cl)c(C)c(=O)[nH]2)cc(OC)c1", "changes": "RT-181I", "method": "nucleotide incorporation / radiometric", "result": ">1.56"}
{"structure": "Cc1cc(S(N)(=O)=O)ccc1NC(=O)COc1ccc(Cl)cc1C(=O)c1cc(Cl)cc(C#N)c1", "changes": "RT-Y188C", "method": "fluorescence", "result": "1.72"}
{"structure": "CCOc1cccc(C2(CC)Oc3ccccc3-n3cccc3C2=O)c1", "changes": "RT-Y188L", "method": "nucleotide incorporation / radiometric", "result": "1"}
{"structure": "Cc1occc1C(=S)Nc1ccc(Cl)c(/C=N/OC(C)(C)C)c1", "changes": "RT-L74V", "result": "1.11"}
{"structure": "COc1ccc(CSc2nc(Cc3c(Cl)cccc3Cl)c(C)c(=O)[nH]2)cc1OC", "changes": "RT-K103N", "method": "nucleotide incorporation / radiometric", "result": ">333"}
{"structure": "c1ccc(C2SCc3nc4ccccc4n32)cc1", "changes": "RT-I135T", "result": "1"}
{"structure": "Nc1nc2c(ncn2[C@H]2CC[C@@H](COP(=O)(O)OP(=O)(O)OP(=O)(O)O)O2)c(=O)[nH]1", "changes": "RT-V106A", "method": "nucleotide incorporation / radiometric", "result": "1.23"}
{"structure": "CC(C)=CCOc1cc(NC(=S)c2ccoc2C)ccc1Cl", "changes": "RT-Y188L", "result": "31.25"}
{"structure": "CCC1(c2cccc(I)c2)Oc2ccccc2-n2cccc2C1=O", "changes": "RT-Y188L", "method": "nucleotide incorporation / radiometric", "result": ">200"}
{"structure": "CCc1c(Sc2ccccn2)n(COCc2ccccc2)c(=O)[nH]c1=O", "changes": "RT-L100I", "result": "1"}
{"structure": "CCC1(c2ccc(I)cc2)Oc2ccccc2-n2cccc2C1=O", "changes": "RT-Y188L", "method": "nucleotide incorporation / radiometric", "result": "22.5"}
{"structure": "CCCCOc1ccc(CSc2nc(Cc3c(Cl)cccc3Cl)c(C)c(=O)[nH]2)cc1", "changes": "RT-K103N", "method": "nucleotide incorporation / radiometric", "result": ">142.8"}
{"structure": "Nc1ccn([C@@H]2CS[C@H](COP(=O)(O)OP(=O)(O)OP(=O)(O)O)O2)c(=O)n1", "changes": "RT-L74V", "method": "nucleotide incorporation / radiometric", "result": "1.62"}
{"structure": "Cc1ccc2c(c1)n(CCNC(=S)Nc1ccc(Br)cn1)c(=O)c1cccn12", "changes": "RT-L100I", "method": "nucleotide incorporation", "result": "17.5"}
{"structure": "Nc1nc2c(ncn2[C@H]2C[C@H](O)[C@@H](COP(=O)(O)OP(=O)(O)OP(=O)(O)O)O2)c(=O)[nH]1", "changes": "RT-M184V", "method": "nucleotide incorporation / radiometric", "result": "0.42"}
{"structure": "Cc1cn([C@H]2C=C[C@@H](COP(=O)(O)OP(=O)(O)OP(=O)(O)O)O2)c(=O)[nH]c1=O", "changes": "RT-H208Y", "result": "2.8"}
{"structure": "Nc1ncnc2c1ncn2[C@@H]1O[C@H](COP(=O)(O)OP(=O)(O)OP(=O)(O)O)C[C@@H]1F", "changes": "RT-M184V", "method": "nucleotide incorporation / radiometric", "result": "0.96"}
{"structure": "O=c1c2cccn2c2ccccc2n1CCNC(=S)Nc1ccc(Br)cn1", "changes": "RT-V106A", "method": "nucleotide incorporation", "result": "1.93"}
{"structure": "Nc1ccn([C@H]2C[C@H](O)[C@@H](COP(=O)(O)OP(=O)(O)OP(=O)(O)O)O2)c(=O)n1", "changes": "RT-A62V V75I F77L F116Y Q151M", "method": "nucleotide incorporation / radiometric", "result": "1.1"}
{"structure": "CCC1(c2cccc(Cl)c2)Oc2ccccc2-n2cccc2C1=O", "changes": "RT-Y188L", "method": "nucleotide incorporation / radiometric", "result": "13.8"}
{"structure": "Cc1cc2c(cc1C)n1cccc1c(=O)n2CCNC(=S)Nc1ccc(Br)cn1", "changes": "RT-V106A", "method": "nucleotide incorporation", "result": "0.6"}
{"structure": "Cc1cn([C@H]2CC[C@@H](COP(=O)(O)OP(=O)(O)OP(=O)(O)O)O2)c(=O)[nH]c1=O", "changes": "RT-E138A", "method": "nucleotide incorporation / radiometric", "result": "0.9"}
{"structure": "CC(C)=CCOc1cc(NC(=S)c2ccoc2C)ccc1Cl", "changes": "RT-V106A P225H", "method": "nucleotide incorporation / radiometric", "result": "104"}
{"structure": "C=C(C)CCOCc1ccc(C2(CC)Oc3ccccc3-n3cccc3C2=O)cc1", "changes": "RT-V106A", "method": "nucleotide incorporation / radiometric", "result": "1.28"}
{"structure": "CC(C)=CCN1Cc2cc(Cl)cc3[nH]c(=O)n(c23)C[C@@H]1C", "changes": "RT-V106A", "method": "nucleotide incorporation / radiometric", "result": "10"}
{"structure": "C/C=C/CSc1cc(NC(=S)c2ccsc2C)ccc1Cl", "changes": "RT-K103N", "result": ">13.33"}
{"structure": "CCC1(c2ccc(Cn3ccsc3=N)cc2)Oc2ccccc2-n2cccc2C1=O", "changes": "RT-V106A", "method": "nucleotide incorporation / radiometric", "result": ">6.25"}
{"structure": "O=C1c2cccnc2C(=O)N1CCNC(=S)Nc1ccc(Br)cn1", "changes": "RT-K103N", "method": "nucleotide incorporation", "result": "0.789"}
{"structure": "Cc1c(Cc2c(Cl)cccc2Cl)nc(SCc2cccc(C#N)c2)[nH]c1=O", "changes": "RT-181I", "method": "nucleotide incorporation / radiometric", "result": ">42"}
{"structure": "CCC1(c2ccc(COc3cccnc3)cc2)Oc2ccccc2-n2cccc2C1=O", "changes": "RT-K103N", "method": "nucleotide incorporation / radiometric", "result": "5"}
{"structure": "Cc1cn([C@H]2C=C[C@@H](COP(=O)(O)OP(=O)(O)OP(=O)(O)O)O2)c(=O)[nH]c1=O", "changes": "RT-P225H", "method": "nucleotide incorporation / radiometric", "result": "0.6"}

The first 2 rows once more:

structure,changes,method,result
COc1cc(CSc2nc(Cc3c(Cl)cccc3Cl)c(C)c(=O)[nH]2)cc(OC)c1,RT-181I,nucleotide incorporation / radiometric,>1.56
Cc1cc(S(N)(=O)=O)ccc1NC(=O)COc1ccc(Cl)cc1C(=O)c1cc(Cl)cc(C#N)c1,RT-Y188C,fluorescence,1.72

Fold resistance has wild type as its base.